Data taken from PMC12567398, “New Assay Systems to Characterize the Broad-Spectrum Antiherpesviral and Non-Herpesviral Activity of Cyclin-Dependent Kinase (CDK) 8 Inhibitors” (Pharmaceuticals, 2025).
Like-named read-outs stand apart in the source and are kept apart here.

How the values were obtained:
[1] = test system: Epstein–Barr virus P3HR-1; assay: EBV lytic assay in TPA-induced P3HR-1 cells, qPCR; assay type: cell-based
MHV-68-Luc = MHV-68-Luc luciferase reporter assay; assay type: cell-based, murine herpesvirus 68
EHV-1-GFP = EHV-1-GFP antiviral assay, GFP fluorometry; assay type: cell-based, equine herpesvirus 1
EHV-1 = assay: EHV-1-specific qPCR of virus release into culture medium; assay type: cell-based, equine herpesvirus 1
HHV-6A-GFP = assay: HHV-6A plaque reduction assay in HFFs; conditions: HFF
[2] = Vero, reference compounds, ratio CC50 / EC50
[3] = HFF, reference compounds, ratio CC50 / EC50

## CC(C)OC(=O)[C@H](C)N[P@](=O)(CO[C@H](C)Cn1cnc2c(N)ncnc21)Oc1ccccc1 [TAF, tenofovir alafenamide]
[1]
  SI: > 55.6

## CC(C)Nc1nc2cc(Cl)c(Cl)cc2n1[C@H]1O[C@@H](CO)[C@H](O)[C@@H]1O [MBV, maribavir]
MHV-68-Luc; MEF
  SI: 3.0
MHV-68-Luc; Vero
  SI: > 11.3

## O=C(O)P(=O)(O)O [FOS, foscarnet]
MHV-68-Luc; MEF
  SI: 24.1
MHV-68-Luc; Vero
  SI: > 27.5

## CN(C)C(=O)Cn1cc(-c2ccc(-c3cncc4ccccc34)cc2)cn1 [BI-1347]
EHV-1-GFP; GFP / COS-7
  SI: > 625.0
EHV-1; qPCR / COS-7
  SI: > 16,667
EHV-1; qPCR / HFF
  SI: > 2,500
[1]; EBV, P3HR-1
  SI: > 18.2
MHV-68-Luc; COS-7
  SI: > 1,000,000.0
MHV-68-Luc; HFF
  SI: > 2,500.0
MHV-68-Luc; MEF
  SI: > 16,666.7
MHV-68-Luc; Vero
  SI: > 200,000.0
SARS-CoV-2 d6-YFP; SARS-CoV-2, Caco-2
  SI: > 4.4
HHV-6A-GFP
  SI: > 500.0

## O=c1nc(NO)ccn1[C@@H]1O[C@H](CO)[C@@H](O)[C@H]1O [EIDD-1931]
SARS-CoV-2 d6-YFP
  SI: > 24.4

## Nc1ccn(C[C@@H](CO)OCP(=O)(O)O)c(=O)n1 [CDV, cidofovir]
EHV-1-GFP; GFP / COS-7
  SI: 26.8
EHV-1-GFP; [2]
  SI: > 22.2
HHV-6A-GFP
  SI: > 250.0

## CC(C)(C)C(=O)OCOP(=O)(COCCn1cnc2c(N)ncnc21)OCOC(=O)C(C)(C)C [ADV, adefovir dipivoxil]
[1]
  SI: 54.7

## Nc1nc(O)c2ncn(COC(CO)CO)c2n1 [GCV, ganciclovir]
EHV-1-GFP; GFP / COS-7
  SI: > 500.0
EHV-1-GFP; [3]
  SI: > 38.5
EHV-1-GFP; [2]
  SI: > 2,500
MHV-68-Luc; Vero
  SI: > 111.1
HHV-6A-GFP
  SI: > 40.0

## CCCCCCCCCCCCCCCCOCCCOP(=O)(O)CO[C@H](CO)Cn1ccc(N)nc1=O [BCV, brincidofovir]
EHV-1-GFP; GFP / COS-7
  SI: 245.0
EHV-1-GFP; [3]
  SI: 633.3
EHV-1-GFP; [2]
  SI: 650.0
MHV-68-Luc; COS-7
  SI: > 50.0
MHV-68-Luc; MEF
  SI: > 100.0
MHV-68-Luc; Vero
  SI: > 1,000.0
HHV-6A-GFP
  SI: > 5,000.0

## Cn1ncc2cc(-c3cnc(N)c(Cl)c3N3CCC4(CCNC4=O)CC3)ccc21 [CCT-251921]
EHV-1-GFP; GFP / COS-7
  SI: > 500.0
EHV-1; qPCR / COS-7
  SI: > 166.7
EHV-1; qPCR / HFF
  SI: > 62.5
[1]
  SI: > 40.0
MHV-68-Luc; COS-7
  SI: > 20,000.0
MHV-68-Luc; HFF
  SI: > 55.6
MHV-68-Luc; MEF
  SI: > 1,000.0
MHV-68-Luc; Vero
  SI: > 50,000.0
SARS-CoV-2 d6-YFP; SARS-CoV-2, Caco-2
  SI: > 1.6
HHV-6A-GFP
  SI: > 2,500.0

## Nc1nc2c(ncn2COCCO)c(=O)[nH]1 [ACV, aciclovir]
MHV-68-Luc; MEF
  SI: 4.5

## Nc1ncnc2c1ncn2CCOCP(=O)(O)O [AFV, adefovir]
[1]; EBV, P3HR-1
  SI: > 7.7
